US7378408B2, “Methods of treatment and formulations of cephalosporin” (Pfizer Inc., priority 2001, dated 2008)
Where a name gives a salt, the structure may show the parent alone.

Test system: Clostridium perfringens
Type: in vivo
Conditions: cats, 14 days after a single administration of 8 mg/kg

With `CO/N=C(\C(=O)N[C@@H]1C(=O)N2C(C(=O)O)=C([C@@H]3CCCO3)CS[C@H]12)c1csc(N)n1` [Compound I, (6R,7R)-7-[[(2Z)-(2-amino-4-thiazolyl)(methoxyimino)acetyl]amino]-8-oxo-3-[(2S)-tetrahydro-2-furanyl]-5-thia-1-azabicyclo[4.2.0]oct-2-ene-2-carboxylic acid, monosodium salt] the “reduction in the numbers of Clostridium perfringens bacteria” value was “substantial reduction”.
